PubChem BioAssay AID588726 (The Scripps Research Institute Molecular Screening Center, 2011)
The list shows a part of the results, in another mix than the full data. Calls of active or inactive are those of the source. No stated cut-off is given here; in the data, active means inhibition above about 27%; inactive means the rest.

By UniProt entry, the sequences of proteins in these tests, tags left out. Where a name states a change or a piece, a line headed by the entry shows the natural chain unless it says otherwise.
UniProt P9WQA3: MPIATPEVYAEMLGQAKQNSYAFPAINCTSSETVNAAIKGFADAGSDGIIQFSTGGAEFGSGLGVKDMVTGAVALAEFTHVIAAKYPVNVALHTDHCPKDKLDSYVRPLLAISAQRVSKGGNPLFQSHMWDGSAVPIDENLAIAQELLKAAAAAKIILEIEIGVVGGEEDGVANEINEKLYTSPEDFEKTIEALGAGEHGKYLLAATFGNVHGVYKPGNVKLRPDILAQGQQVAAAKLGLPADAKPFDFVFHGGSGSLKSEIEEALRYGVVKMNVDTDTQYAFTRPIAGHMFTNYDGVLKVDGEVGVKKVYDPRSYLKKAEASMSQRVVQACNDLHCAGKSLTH

biological target: Fructose-bisphosphate aldolase (Mycobacterium tuberculosis (strain ATCC 25618 / H37Rv)) (UniProt P9WQA3); assay: M. tuberculosis aldolase activity blockers – biochemical, fluorescence, strain H37Rv, primary screen (AID 588726);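 further: 0% = vehicle and 100% = reference inhibitor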; details: purified M. tuberculosis FBA, fluorescence read-out; at 1 µM; active compounds read high

| SMILES | inhibition |
| --- | --- |
| O=P(Nc1nccs1)(c1ccccc1)c1nc2ccccc2s1 (stereo unspecified) | inactive: -4.56% |
| Nc1ccccc1[As](=O)(O)c1ccccc1 | inactive: 0.33% |
| O=C(O)COc1ccc([As](=O)(O)O)cc1[N+](=O)[O-] | inactive: -2.79% |
| NC(=O)Nc1ccc([As](=O)(O)O)cc1 | inactive: -2.46% |
| O=[N+]([O-])c1ccc2c(c1)nnn2O | inactive: 1.54% |
| CN(C)C(=O)c1cc([N+](=O)[O-])cc2c1-c1c(cc([N+](=O)[O-])cc1[N+](=O)[O-])C2=O | inactive: -6.06% |
| CN(C(=O)Cc1ccc(Cl)c(Cl)c1)[C@H]1CC[C@@]2(CCCO2)C[C@@H]1N1CCCC1 | inactive: 1.28% |
| N#CCCN(C(=O)COC(=O)C(O)(c1ccccc1)c1ccccc1)c1ccc(F)cc1 | inactive: -1.81% |
| CN(C(=O)Cc1ccccc1)[C@@H]1CC[C@]2(CCCO2)C[C@H]1N1CCCC1 | inactive: -2.68% |
| CCOP1(=S)c2c(C)nn(CCC#N)c2N=C(c2ccc(F)cc2)N1C (stereo unspecified) | inactive: 0.23% |
| Cc1nn(-c2ccccc2)c2c1P(=O)(N1CCOCC1)N(C)C(c1ccccc1)=N2 (stereo unspecified) | inactive: 4.01% |
| CC1CCC(C(C)C)C(OP(=O)(Nc2ccccn2)c2ccccc2)C1 (stereo unspecified) | inactive: 2.78% |
| Cc1ccc(C(=O)OC2CN3CCC2CC3)cc1 (stereo unspecified) | inactive: 1.05% |
| O=C(/C=C/c1ccccc1)OC1CN2CCC1CC2 (stereo unspecified) | inactive: 1.93% |
| CCCC1OP(=O)(Nc2ccccc2)OCC1CC (stereo unspecified) | inactive: -1.95% |
| CN(C)C1(CNC(=O)c2ccc(S(C)(=O)=O)cc2)CCCCC1 | inactive: 0.3% |
| O=P1(Nc2ncccn2)COc2ccccc2OC1 | inactive: -3.22% |
| Cc1ccc(S(=O)(=O)N(CCCN)CCCc2c(C)nc(N)[nH]c2=O)cc1 | inactive: -8.4% |
| Cc1ccc(OCC(=O)OC2CN3CCC2CC3)cc1 (stereo unspecified) | inactive: 0.75% |
| O=[As](O)(c1cccs1)c1cccs1 | inactive: 0.72% |
| O=P1(Nc2ccc(Br)cn2)COc2ccccc2OC1 | inactive: -4.21% |
| NS(=O)(=O)c1cccc(NC(=O)COC(=O)C(O)(c2ccccc2)c2ccccc2)c1 | inactive: -0.4% |
| Nc1cccc([As](=O)(O)c2ccccc2)c1 | inactive: -0.56% |
| CCOP(=O)(Nc1ccc(C)cn1)OCC | inactive: -0.22% |
| CN(CCCl)Cc1cc(Cl)c(NC2=NCCN2)c(Cl)c1 | inactive: 0.01% |

| SMILES | inhibition |
| --- | --- |
| O=P1(Nc2ccccn2)COc2ccccc2OC1 | inactive: -1.27% |
| CCC1=CC2Cc3nc4ccc(Cl)cc4c(N)c3C(C1)C2 (stereo unspecified) | inactive: 4.59% |
| CCOP(=O)(NC(=NC(C)c1ccccc1)NC(C)c1ccccc1)OCC (stereo unspecified) | inactive: -1.23% |
| O=P1(N(CCCl)CCCl)NCCC(C(F)(F)F)O1 (stereo unspecified) | inactive: -1.77% |
| Clc1n[nH]nc1-c1nn[nH][15n]1 | inactive: 3.18% |
| CC(C)(C)C(=O)NC(Sc1ncccn1)C(Cl)(Cl)Cl (stereo unspecified) | inactive: 1.26% |
| COc1ccccc1CNC(=O)COC(=O)C(O)(c1ccccc1)c1ccccc1 | inactive: -2.33% |
| CC1(CBr)Cn2c(nc3ccccc3c2=O)S1 (stereo unspecified) | inactive: -5.19% |
| CC(C)/C=N\N=C(\N)N[N+](=O)[O-] | inactive: 4.72% |
| CN(C(=O)Cc1ccc(Cl)c(Cl)c1)[C@@H]1CCCC[C@H]1N1CCCC1 | inactive: -3.97% |
| CC(C)C(=O)NC(Sc1ccccc1)C(Cl)(Cl)Cl (stereo unspecified) | inactive: 2.81% |
| O=P(Nc1nccs1)(c1ccccc1)c1ccccc1 | inactive: -3.54% |
| c1nnnn1CCn1cnnn1 | inactive: 3.06% |
| COc1ccc(N)c([N+](=O)[O-])c1[N+](=O)[O-] | inactive: -6.09% |
| Nc1ccc(CCCCOc2ccccc2)cc1 | inactive: -8.49% |
| O=P(Nc1ccccn1)(c1ccc(Br)cc1)c1ccc(Br)cc1 | inactive: 10.6% |
| CN(C)C1(CNC(=O)c2ccc(Cl)c(S(N)(=O)=O)c2)CCCCC1 | inactive: -0.1% |
| O=P(Nc1nc2ccccc2s1)(c1ccccc1)c1ccccc1 | inactive: -0.6% |
| C[C@H]1OP(=O)(Oc2ccccc2)[C@H](O)[C@H](O)[C@H]1N=[N+]=[N-] (stereo partly specified) | inactive: -1.3% |
| O=[N+]([O-])c1ccc(O)c(/C=N/Nc2ccc([N+](=O)[O-])cc2[N+](=O)[O-])c1 | inactive: 4.58% |
| CC(=O)NC(SC(=S)N(C)C)C(Cl)(Cl)Cl (stereo unspecified) | inactive: -0.24% |
| O=[N+]([O-])c1ncn(CCn2cnc([N+](=O)[O-])n2)n1 | inactive: 2.39% |
| O=[As](O)(c1ccccc1)c1ccc(O)cc1 | inactive: 0.42% |
| C(Cc1nn[nH]n1)Cc1nn[nH]n1 | inactive: 0.2% |
| Nc1ccc([As](=O)(O)c2ccc([N+](=O)[O-])cc2)cc1 | inactive: -1.25% |

| SMILES | inhibition |
| --- | --- |
| O=C(OC1CN2CCC1CC2)c1cccc(Cl)c1 (stereo unspecified) | inactive: 1.68% |
| CCNC(=S)/N=C(\N)N[N+](=O)[O-] | inactive: 3.5% |
| O=C(NC1CCS(=O)(=O)C1)NP(=S)(Oc1ccccc1)Oc1ccccc1 (stereo unspecified) | inactive: 0.66% |
| c1ccc(-c2nn[nH]n2)c(-c2nn[nH]n2)c1 | inactive: 1.61% |
| Cc1ccc(NP(=O)(Oc2cccc(C)c2)Oc2cccc(C)c2)nc1 | inactive: 4.99% |
| O=P1(N(CCCl)CCCl)OCCC2CCCCN21 (stereo unspecified) | inactive: 1.09% |
| COC(=O)c1cc2c(s1)N=C(c1ccccc1)N(C)P2(=O)N1CCOCC1 (stereo unspecified) | inactive: -1.88% |
| CC(=O)NC(SC(=S)N(CC(C)C)CC(C)C)C(Cl)(Cl)Cl (stereo unspecified) | inactive: -0.21% |
| Cc1ccc(OP(=O)(Nc2ccccn2)Oc2ccc(C)cc2)cc1 | inactive: 1.21% |
| O=C(OC1CN2CCC1CC2)c1ccccc1 (stereo unspecified) | inactive: 1.33% |
| CCC(=O)N1C2C3N(C(=O)CC)C1C1N(C(=O)CC)C(C(N1C(=O)CC)N3C(=O)CC)N2C(=O)CC | inactive: 2.42% |
| CC(NC(=O)COC(=O)C(O)(c1ccccc1)c1ccccc1)c1ccccc1 (stereo unspecified) | inactive: 4.68% |
| Cc1ccccc1OP(=O)(Nc1ccccn1)Oc1ccccc1C | inactive: 11.7% |
| O=c1c2cc([N+](=O)[O-])ccc2[nH]c2c([N+](=O)[O-])cc([N+](=O)[O-])cc12 | inactive: -7.43% |
| CN(C)C(=O)Oc1noc2ccccc12 | inactive: -0.01% |
| O=P1(Nc2nc3ccc(Cl)cc3s2)COc2ccccc2O1 (stereo unspecified) | inactive: -0.62% |
| CCOc1ccc(C2=NCC(CBr)S2)cc1 (stereo unspecified) | inactive: 3.61% |
| CCc1cc(O)c([N+](=O)[O-])c(C)c1[N+](=O)[O-] | inactive: -5.39% |
| CC(C)(C)C(=O)NC(Sc1ccccc1)C(Cl)(Cl)Cl (stereo unspecified) | inactive: -4.38% |
| CC(=O)c1ccc(N2CC2c2ccncc2)cc1 (stereo unspecified) | inactive: 3.37% |
| N#C/C(=C\c1ccc(N(CCBr)CCBr)cc1)C(N)=O | inactive: -13% |
| COC(=O)C1(C)COP(=O)(NCc2ccccc2)OC1 (stereo unspecified) | inactive: -0.5% |
| Cc1ccccc1CN(C)C(=O)COC(=O)C(O)(c1ccccc1)c1ccccc1 | inactive: 3.18% |
| C[C@H]1OP(=O)(Oc2ccccc2)C[C@@H]2O[C@@H]21 (stereo partly specified) | inactive: -0.51% |
| C[C@@H]1C=CCP(=O)(Oc2ccccc2)O1 (stereo partly specified) | inactive: -1.07% |

| SMILES | inhibition |
| --- | --- |
| CC(=O)Nc1ccc([As](=O)(O)O)c(O)c1 | inactive: -6.27% |
| CC(=O)Nc1ccc(Oc2c([N+](=O)[O-])cc([N+](=O)[O-])cc2[N+](=O)[O-])cc1 | inactive: -13.2% |
| NC(=O)c1cc([N+](=O)[O-])cc([N+](=O)[O-])c1N | inactive: -4.63% |
| CN(C(=O)Cc1ccc(Cl)c(Cl)c1)[C@H]1CCCC[C@H]1N1CCCC1 | inactive: -2.41% |
| Cc1ccc(N/C(=N/P(=O)(N2CCOCC2)N2CCOCC2)N2CCOCC2)cc1 | inactive: 3.39% |
| COc1ccccc1OP(=O)(Nc1ccc(C)cn1)Oc1ccccc1OC | inactive: 1.22% |
| Cc1ccc(OP(=O)(Nc2nccs2)Oc2ccc(C)cc2)cc1 | inactive: 0.65% |
| CN1CCCC(OC(=O)C(c2ccccc2)c2ccccc2)C1 (stereo unspecified) | inactive: -4.67% |
| Clc1ccc(Cl)c(NC2=NCC(CBr)S2)c1 (stereo unspecified) | inactive: -2.9% |
| Nc1cc(N)c2nonc2c1[N+](=O)[O-] | inactive: 0.66% |
| CC(C)CC(=O)NC(Sc1ccc(Cl)cc1)C(Cl)(Cl)Cl (stereo unspecified) | inactive: 1.53% |
| Oc1ccccc1CNc1ccccn1 | inactive: -1.02% |
| O=C(NC(Sc1ccncn1)C(Cl)(Cl)Cl)c1ccccc1 (stereo unspecified) | inactive: 2.51% |
| O=[N+]([O-])C1C(O)C(O)C([N+](=O)[O-])C(O)C1O (stereo unspecified) | inactive: 1.21% |
| CC(=O)Nc1ccc([As](=O)(O)O)cc1 | inactive: 3.41% |
| O=C(O)c1ccccc1[As](=O)(O)O | inactive: 0.74% |
| CCCC1OP(N)(=O)OCC1CC (stereo unspecified) | inactive: -0.05% |
| O=P(Nc1nc2ccc(Cl)cc2s1)(c1ccccc1)c1ccccc1 | inactive: 0.19% |
| CN(C)P(=O)(N(C)C)n1c(Nc2ccccc2)nnc1-c1ccccc1 | inactive: -1.74% |
| Cc1cc(SC(NC(=O)c2ccc(F)cc2)C(Cl)(Cl)Cl)ncn1 (stereo unspecified) | inactive: 0.1% |
| CCOP(=O)(Nc1ccccc1)OCC | inactive: -2.82% |
| Cc1ccc(NP(=O)(Oc2ccccc2F)Oc2ccccc2F)nc1 | inactive: 3% |
| CN(C(=O)Cc1ccc(Cl)c(Cl)c1)[C@H]1CCCC[C@@H]1N1CCCC1 | inactive: -2.03% |
| CCN(N=Nc1nonc1N)c1nonc1N | inactive: 0.71% |
| Nc1cccc2ccc([As](=O)(O)O)cc12 | inactive: 22.6% |

| SMILES | inhibition |
| --- | --- |
| O=P1(N(CCCl)CCCl)OCCCS1 (stereo unspecified) | inactive: 1.39% |
| O=C(Nc1cc([As](=O)(O)O)ccc1O)c1ccccc1 | inactive: 2.81% |
| CC(C)(C)C(=O)NC(Sc1ccncn1)C(Cl)(Cl)Cl (stereo unspecified) | inactive: 0.45% |
| O=[N+]([O-])c1ncn(CCn2ncnc2[N+](=O)[O-])n1 | inactive: 8.62% |
| COC(=O)C1(C)COP(=O)(Nc2ccccc2)OC1 (stereo unspecified) | inactive: 0.79% |
| O=[N+]([O-])c1cccc(NC2=NCC(CBr)S2)c1 (stereo unspecified) | inactive: 4.6% |
| O=C(O)CNc1ccc([As](=O)(O)O)cc1 | inactive: 2.18% |
| COc1ccc(C2=NCC(CBr)S2)cc1 (stereo unspecified) | inactive: -3.27% |
| O=[N+]([O-])c1cccc2n[nH]nc12 | inactive: -4.41% |
| CC(=O)N1C2C3N(C(C)=O)C1C1N(C(C)=O)C(C(N1C(C)=O)N3C(C)=O)N2C(C)=O | inactive: 0.37% |
| Cc1ccc(NP(=O)(Oc2ccccc2)Oc2ccccc2)nc1 | inactive: 16.5% |
| CCc1nc2c(n1)c1c(non1O)c1c2no[n+]1[O-] | inactive: 0.53% |
| O=[N+]([O-])c1cc([N+](=O)[O-])c(CCNc2ccccc2)c([N+](=O)[O-])c1 | inactive: -2.5% |
| Nc1ccc([As](=O)(O)c2ccc(N)cc2)cc1 | inactive: -1.9% |
| C[N+]1=C2C=CC=CC=C2SC12C([N+](=O)[O-])=CC([N+](=O)[O-])=C[C-]2[N+](=O)[O-] (stereo unspecified) | inactive: -0.98% |
| CCN(/C(=N/P(=O)(N1CCOCC1)N1CCOCC1)N1CCOCC1)c1ccc(OC)cc1 | inactive: -1.09% |
| CC(C)c1nc(Nc2ccccc2)n(P(=O)(N(C)C)N(C)C)n1 | inactive: 0.38% |
| CC(C)=N/N=C(\N)N[N+](=O)[O-] | inactive: 3.25% |
| CN(C)C(=O)OCCc1n(C)cc[n+]1C | inactive: -0.73% |
| CC1CCN(C(=O)Oc2c(Cl)cc(Cl)c3cccnc23)CC1 | inactive: 1.46% |
| c1cc(-c2nn[nH]n2)ccc1-c1nn[nH]n1 | inactive: -0.84% |
